Patent US20110118274A1, “PROTEASOME INHIBITORS AND THEIR USE IN TREATING PATHOGEN INFECTION AND CANCER” (CORNELL RESEARCH FOUNDATION, INC., priority 2007, published 2011)

The chains behind the UniProt entries cited, without tags or fusion partners. A line that says so, or that is headed by a name, gives the form on record, which may keep a tag or linker. Residues count along the entry.
UniProt P9WHT9, 58-291 limits assumed: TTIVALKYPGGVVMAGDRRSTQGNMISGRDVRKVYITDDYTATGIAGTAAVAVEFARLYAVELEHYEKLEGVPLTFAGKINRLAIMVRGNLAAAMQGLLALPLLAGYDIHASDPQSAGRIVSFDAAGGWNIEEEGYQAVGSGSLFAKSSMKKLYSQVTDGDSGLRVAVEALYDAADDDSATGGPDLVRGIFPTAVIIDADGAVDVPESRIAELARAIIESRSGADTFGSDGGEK
UniProt P9WHU1, 10-248 with tags or gaps partner limits assumed: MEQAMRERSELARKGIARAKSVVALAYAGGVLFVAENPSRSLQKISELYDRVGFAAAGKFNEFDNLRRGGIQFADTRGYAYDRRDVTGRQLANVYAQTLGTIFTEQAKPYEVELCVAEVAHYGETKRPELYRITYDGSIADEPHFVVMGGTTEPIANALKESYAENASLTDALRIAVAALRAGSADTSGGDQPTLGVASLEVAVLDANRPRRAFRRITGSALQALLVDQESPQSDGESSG

Experiments:
M. bovis BCG = assay: Mycobactericidal activity against BCG (CFU); details: alone and with DETA-NO 50 μM, 4 days
Description: FIGS. 5A-B illustrate the killing of mycobacteria by oxathiazol-2-ones in synergy with NO. FIG. 5A is a graph of the killing of BCG by GL5, GL1, and GL3 was concentration-dependent and augmented following exposure to a sub-lethal concentration of NO donated by DETA-NO. BCG at an initial number of 2.5×10^6 CFU/mL (arrow) in Sauton's medium was treated with (open bars) and without (solid bars) DETA-NO (50 μM) and with the indicated oxathiazol-2-one at 10, 25, or 50 μM for four days. Bacteria were then serially diluted in saline and plated for enumeration of surviving CFU. DETA-NO at this concentration prevented replication but caused no killing. […] Mtb was exposed to 100 μM DETANO (open bars) or 100 μM DETA (solid bars) overnight prior to addition of GL5 at 25 μM or 50 μM or to GL6 (50 μM) as a control. Surviving bacteria were plated 4 days after addition of oxathiazol-2-one. Initial inocula are indicated. DETA-NO at this concentration prevented replication but caused little or no killing. The limit of detection was 4 log10 CFU/ml […] Mid-log phase cultures (A560 ? 0.8-1.0) were diluted to 0.05-0.1 (A580) and quantified by CFU. Mycobacteria were incubated under indicated conditions in 96 well plates in 200 μl, then serially diluted in PBS with 0.02% Tween 80, pH 7.2 and plated for CFU on Middlebrook 7H11 agar plates with 10% Middlebrook OADC enrichment. […]

Mtb PrcAB-OG = Mtb PrcAB-OG (Mycobacterium tuberculosis, UniProt P9WHT9); details: for kinact/K: Mtb PrcAB-OG, corrected for substrate competition, error propagated; for KI (inactivation): read-out: K (concentration of inactivator that yields a rate of inactivation equal to ½ kinact)
Mtb proteasome = Mtb proteasome (Mycobacterium tuberculosis, UniProt P9WHT9)

SMILES	killing of BCG (M. bovis BCG)	Hill coefficient (Mtb PrcAB-OG) (Mtb PrcAB-OG)	effect of substrate concentration on rate of inactivation (Mtb PrcAB-OG)	kinact (Mtb PrcAB-OG) [s⁻¹]	kinact/K (Mtb PrcAB-OG)	KI (inactivation) (Mtb PrcAB-OG) [µM]	activity recovered after dialysis (Mtb proteasome)	activity recovered after dilution (Mtb proteasome)
O=c1oc(-c2cc3c(s2)CCCC3)ns1	able to kill BCG	1.9	Increasing substrate concentration reduced the rate of proteasome inactivation	0.020 ± 0.002	2898 ± 413^b M^−1s^−1	6.9	did not restore the activity	–
O=c1oc(-c2cc3ccccc3s2)ns1	able to kill BCG	2.3	–	0.018 ± 0.001	1250 ± 111^b M^−1s^−1	14.4	–	no activity was recovered
